Data on 39 compounds can be found in PubChem BioAssay AID504690 (Sanford-Burnham Center for Chemical Genomics, 2011).

The list shows a part of the results, in another mix than the full data. Some structures show a salt or complex split into parts, the way the source records it. Active and inactive are the calls of the source.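 How the source made its calls: active means inhibition reaching at least a set limit at 20 µM in the primary screen (cut at about 59% in these data); inactive means the rest.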

The test has as its system glucose-6-phosphate dehydrogenase-6-phosphogluconolactonase (Plasmodium falciparum 3D7). Put plainly: inhibition of malaria parasite G6PD (PfGluPho) – biochemical, fluorescence intensity, uHTS, primary screen (AID 504690).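 Further: 0% = DMSO wells with substrate and 100% = DMSO wells lacking glucose-6-phosphate.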 As to conditions: PfGluPho enzyme, NADPH resazurin-diaphorase fluorescence; at 20 µM; stronger effect = higher value.
As a reminder, the inhibition is the drop in the measured response relative to a control, in per cent. For `COc1ccc(OP(C)(=O)Nc2ccccn2)cc1` (centres undefined), the inhibition is inactive: -7.96%. With `CN(C)CCOC(=O)C(O)(c1ccccc1)C1CCCC1` (centres undefined) the figure was inactive: -0.07%; with `COc1ccccc1OP(C)(=O)Nc1ccc(Br)cc1` (centres undefined), inactive: -7.46%. With `COc1ccccc1OP(C)(=O)Nc1ccc(C)cc1C` (centres undefined), the inhibition was inactive: -2.8%. As for `CP(=O)(Nc1ccccn1)Oc1ccccc1` (centres undefined), the inhibition is inactive: -10.3%.

`CCc1ccc(OP(C)(=O)O)cc1`: the inhibition is inactive: -6.65%.

Regarding `Cc1c(NP(C)(=O)Oc2ccc(C(C)C)cc2)c(=O)n(-c2ccccc2)n1C` (centres undefined), the inhibition is inactive: -17.8%. As for `O=[N+]([O-])c1cc([N+](=O)[O-])c(Nc2ccccn2)c([N+](=O)[O-])c1`, the figure is active: 89.9%. As to `COc1ccccc1OP(C)(=O)Nc1ccc(C)c(C)c1` (centres undefined), the inhibition was inactive: -2.94%.

Consider `COc1ccc(OP(C)(=O)Nc2ccccc2Br)cc1` (centres undefined), for which the inhibition is inactive: -2.45%. As for `Cc1cc(C)cc(OP(C)(=O)Nc2cccc(C(F)(F)F)c2)c1` (centres undefined), the figure is inactive: 8.1%; as for `O=C1C(O)=C([N+](=O)[O-])C(=O)C(O)=C1[N+](=O)[O-]`, inactive: 11%. As for `CCCCCCCCCCCCCCCC1C[N+](C)(C)CCOP(C)(=O)O1` (centres undefined), the figure is inactive: 12.4%; as for `CP(=O)(Nc1ccc(Cl)cc1Cl)Oc1ccccc1` (centres undefined), inactive: -13.8%; as for `CP(=O)(OCCOc1ccccc1)OCCOc1ccccc1`, inactive: 0.75%. For the compound `CCOC(=O)c1ccc(NP(C)(=O)Oc2ccc(F)cc2)cc1` (centres undefined), the inhibition was inactive: -13.1%. Consider `COc1ccc(OP(C)(=O)Nc2ccc(SC(F)(F)F)cc2)cc1` (centres undefined), for which the inhibition was inactive: 8.54%. As for `CP(=O)(Nc1ccccc1)Oc1ccc(F)cc1` (centres undefined), the figure is inactive: -20.9%.

On to `CCCCCOc1ccc(NP(C)(=O)Oc2ccc(Cl)cc2Cl)cc1` (centres undefined), for which the inhibition is inactive: 15.7%. With `O=[N+]([O-])c1cc([N+](=O)[O-])c(OC2CCCCC2O)c([N+](=O)[O-])c1` (centres undefined) the figure was inactive: -32.3%. As for `Cc1c([N+](=O)[O-])cc([N+](=O)[O-])c(Br)c1[N+](=O)[O-]`, the figure is inactive: 5.38%. Regarding `CCN(CC)CCCOC(=O)C(O)(c1ccccc1)C1CCCCC1` (centres undefined), the inhibition is inactive: 6.51%.

Turning to `CP(=O)(Nc1ccccc1F)Oc1ccccc1` (centres undefined), the inhibition is inactive: -4.23%. `CC(C)c1ccc(OP(C)(=O)Nc2ccc(SC(F)(F)F)cc2)cc1` (centres undefined): the inhibition was inactive: 19.9%. With `O=[N+]([O-])c1cc([N+](=O)[O-])c(Nc2ccc(Cl)cc2)c([N+](=O)[O-])c1` the figure was inactive: 23.9%.

As for `COc1ccc2c(c1O)-c1c(O)c(OC)cc3c1[C@H](C2)[N+](C)(C)CC3.O=[N+]([O-])c1cc([N+](=O)[O-])c([O-])c([N+](=O)[O-])c1[O-]`, the inhibition is inactive: 34.2%. With `O=C(OC1CN2CCC1CC2)c1ccc([N+](=O)[O-])cc1` (centres undefined) the figure was inactive: 6.94%. For `O=C(OCCN1CCN(CCOCc2ccccc2)CC1)C(O)(c1ccccc1)c1ccccc1`, the inhibition is inactive: -10.6%. With `CCOP(C)(=S)SCC(=O)NC(C)(CC)C(=O)O` (centres undefined) the figure was inactive: -6.34%; with `CP(=O)(Nc1ccc(SC(F)(F)F)cc1)Oc1ccc(F)cc1` (centres undefined), inactive: -3.27%. As for `Cc1ccccc1NP(C)(=O)Nc1ccccc1C`, the figure is inactive: 3.81%; as for `CP(=O)(Nc1ccc2c(c1)OCCO2)Oc1ccccc1` (centres undefined), inactive: 12%; as for `CN(C)CCOC(=O)C(O)(c1ccccc1)C1CCCCC1` (centres undefined), inactive: 5.51%.

On to `COc1ccc(NP(C)(=O)Oc2ccccc2OC)cc1` (centres undefined), for which the inhibition was inactive: 2.6%. As for `COc1ccc(OP(C)(=O)Nc2cccc(Br)c2)cc1` (centres undefined), the figure is inactive: 0.96%; as for `Cc1c(C(c2ccc3c(c2)OCO3)c2c(C)n(C)n(-c3ccccc3)c2=O)c(=O)n(-c2ccccc2)n1C.O=[N+]([O-])c1cc([N+](=O)[O-])c(O)c([N+](=O)[O-])c1`, inactive: -7.61%. Turning to `O=[N+]([O-])c1ccc(OP2(=O)COCCO2)cc1` (centres undefined), the inhibition is inactive: 5.77%. For `O=[N+]([O-])c1cc([N+](=O)[O-])c(NCC2CCS(=O)(=O)C2)c([N+](=O)[O-])c1` (centres undefined), the inhibition is inactive: 9.48%. With `Cc1cc(-c2cccc3ccccc23)c(C)cn1.O=[N+]([O-])c1cc([N+](=O)[O-])c(O)c([N+](=O)[O-])c1` the figure was inactive: 5.68%.
